Anti-infective test results gathered from many reports (values: NIAID ChemDB through PubChem).

All rows: host cell toxicity; cells: MT-4; endpoint: CC50

CCn is the concentration with n% toxicity to the cells. Rows are shuffled and stem from different studies.

structure,value
CC(C)[C@H](NC(=O)CCc1ccccn1)C(=O)N[C@@H](Cc1ccccc1)C(=O)C(F)(F)[C@H](Cc1ccccc1)NC(=O)[C@H](NC(=O)CCc1ccccn1)C(C)C,>100 µM
C[C@@H]1O[C@@H](O[C@H]2[C@H](O[C@H]3[C@H](O[C@H]4CC[C@@]5(C)[C@@H](CC[C@]6(C)[C@@H]5CC=C5[C@@H]7CC(C)(C)C[C@@H](O)[C@]7(C)CC[C@]56C)[C@@]4(C)CO)O[C@H](C(=O)O)[C@@H](O)[C@@H]3O)O[C@H](CO)[C@H](O)[C@@H]2O)[C@H](O)[C@H](O)[C@H]1O,>1000 µg/mL
CCN1C(C)C(=O)Nc2ccc(Cl)cc2S1(=O)=O,≥200 µM
COc1c(O)ccc(C2CC(=O)c3c(O)cc(O)c(CC=C(C)C)c3O2)c1CC=C(C)C,11 µg/mL
Fc1ccc2nc3n(c2c1)C(c1c(F)cccc1Cl)SC3,28.2 µM
COc1ccc(CSc2nc(Cc3cccc4ccccc34)c(C(C)C)c(=O)[nH]2)cc1,>37.39 µM
CC1CNC(=O)c2ccccc2SSc2ccccc2C(=O)N1,15.9 µg/mL
Cc1nn(-c2ccccc2)c2c1nnn2C(=O)NC(C)(C)C,>200 µM
CCN1C(=O)Nc2ccc(Cl)cc2S1(=O)=O,200 µM
CC(C)=CCc1c(-c2ccc(O)cc2O)oc2c(CC=C(C)C)c(O)cc(O)c2c1=O,44 µg/mL
CCc1c(Cc2ccccc2Br)nc(SCc2ccc(OC)cc2)[nH]c1=O,>165 µM
Fc1cccc(Cl)c1C1SCc2nc3ccc(C(F)(F)F)cc3n21,15 µM
Cc1cn([C@H]2C[C@H](F)[C@@H](CO)O2)c(=O)[nH]c1=O,0.25 µM
Cc1cn([C@H]2C[C@H](N=[N+]=[N-])[C@@H](CO)O2)c(=O)nc1N(C)N,8.56 µM
Nc1nc(N)c2ncn([C@H]3C=C[C@@H](CO)O3)c2n1,35 µM
Nc1ncnc2c1ncn2[C@H]1CC[C@@H](CO)O1,890 µM
COc1ccc2c(c1)nc1n2C(c2c(F)cccc2F)SC1,7.8 µM
O=C1c2cccn2-c2ccc(Cl)cc2S(=O)(=O)N1c1ccc(Cl)cc1,30 µM
Nc1ncnc2c1ccn2[C@H]1C=C[C@@H](CO)O1,>1250 µM
CC1(C)C2CC[C@@]3(C)C4CC[C@@]5(C)CC[C@](C)(C(=O)O)C[C@H]5C4=CC(=O)C3[C@@]2(C)CC[C@@H]1O[C@@H]1O[C@H](C(=O)O)[C@@H](O[C@@H]2O[C@H](C(=O)O)[C@@H](O)[C@H](O)[C@H]2O)[C@H](O)[C@H]1O,1950 µg/mL
CC(C)[C@H](NC(=O)OCc1ccccn1)C(=O)N[C@@H](Cc1ccccc1)C(=O)C(F)(F)[C@H](Cc1ccccc1)NC(=O)[C@@H](NC(=O)OCc1ccccn1)C(C)C,>100 µM
C=C(C)[C@@]12OC3(/C=C/C=C/CCCCCCCCCC)OC1C1[C@@H]4O[C@]4(CO)[C@@H](O)[C@]4(O)C(=O)C(C)=CC4C1(O3)[C@H](C)[C@H]2O,16.3 µM
C=CCN1C(=O)c2cccn2-c2ccc(Cl)cc2S1(=O)=O,>200 µM
NC(=O)c1ncn([C@@H]2O[C@H](CO)[C@@H](O)[C@H]2O)n1,3.3 µM
CC(C)=CCc1cc(C(=O)CC(=O)c2cc3c(cc2O)OC(C)(C)C=C3)ccc1O,8 µg/mL
c1cc(CN2CCCNCCNCCCNCC2)ccc1CN1CCCNCCNCCCNCC1,>500 µg/mL
O=c1c(O)c(-c2ccc(O)c(O)c2)oc2cc(O)cc(O)c12,54 µg/mL
O=C(c1ccccc1)c1ccc2nc3n(c2c1)C(c1c(F)cccc1F)SC3,1.3 µM
Nc1ncnc2c1ccn2[C@H]1CC[C@@H](CO)O1,33 µM
CCc1c(Cc2cccc(Br)c2)nc(SCc2ccc([N+](=O)[O-])cc2)[nH]c1=O,>187 µM
Cc1nn(-c2ccccc2)c2c1nnn2[C@@H]1O[C@H](CO)[C@@H](O)[C@H]1O,145 µM
Cc1cn([C@H]2C[C@@H]3[C@@H](COCN3O)O2)c(=O)[nH]c1=O,158 µg/mL
Fc1ccc2nc3n(c2c1)C(c1c(F)cccc1F)SC3,162.6 µM
NC(=O)c1ncn([C@H]2O[C@@H](COP(=O)(O)OC[C@@H]3C=C[C@H](n4cnc5c(=O)[nH]cnc54)O3)[C@H](O)[C@@H]2O)n1,17.5 µM
Fc1ccc2c(c1)nc1n2C(c2c(F)cccc2Cl)SC1,34.7 µM
Cc1cn([C@H]2C[C@H](N=[N+]=[N-])[C@@H](COC(=O)c3cccnc3)O2)c(=O)[nH]c1=O,99 µM
CCN1C(=O)c2cccn2-c2ccccc2S1(=O)=O,>200 µM
NC(=O)c1nn(COC(CO)CO)cc1I,>300 µM
Fc1ccc2nc3n(c2c1)C(c1c(Cl)cccc1Cl)SC3,>368 µM
NC(=O)c1nn(COCCO)cc1I,>300 µM
CCOC(=O)CNC(=O)n1nnc2c(C)nn(-c3ccccc3)c21,122 µM
O=c1[nH]cnc2c1ncn2[C@H]1CC[C@@H](CO)O1,>500 µM
O=C1c2cccn2-c2ccc(Cl)cc2S(=O)(=O)N1C1CCCC1,66.6 µM
CC(C)[C@H](NS(=O)(=O)CCc1ccccn1)C(=O)N[C@@H](Cc1ccccc1)C(=O)C(F)(F)[C@H](Cc1ccccc1)NC(=O)[C@@H](NS(=O)(=O)CCc1ccccn1)C(C)C,42 µM
O=C1c2cccn2-c2ccc(Cl)cc2S(=O)(=O)N1C1CCCCC1,>200 µM
C/C(CO)=C(/Br)Cn1ccc(N)nc1=O,>100 µg/mL
COC(=O)c1nn([C@H]2CC[C@@H](CO)O2)cc1I,>300 µM
Cc1cn([C@H]2C[C@H](N=[N+]=[N-])[C@@H](COC(=O)C3=CN(C)C=CC3)O2)c(=O)[nH]c1=O,28 µM
Cc1cn([C@H]2C[C@H](N=[N+]=[N-])[C@@H](CO)O2)c(=O)[nH]c1=O,10.7 µM
COc1ccc2c(c1)nc1n2C(c2c(F)cccc2Cl)SC1,1.8 µM
C/C(CO)=C(/Br)Cn1cnc2c(N)ncnc21,>100 µg/mL